PubChem BioAssay AID624099 | ICCB-Longwood | 2012
Assay: 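Knock-downs relieving repression by E2 of an HPV18 LCR luciferase reporter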 (primary screen). Cell system: human C33A cervical carcinoma cells (HPV-negative) stably expressing BPV1 E2 and an HPV18 LCR luciferase reporter. Reagent: siRNA pool against human genes, 40 nM. Timing: 72 h. Read-out: 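Per-well luciferase luminescence, z-scored on each plate against the plate mean and SD with control wells left out, then averaged across three replicate plates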. Reading the numbers: mean z-score and z-score: higher = stronger reporter signal, weaker E2 silencing. Hit rule: 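Hit if mean z-score reaches 2 and two or more of three replicate z-scores also reach 2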.
Here is a random part of about 21,000 reagents tested. Of all reagents, 497 (2.4%) are marked active. 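Higher z means weaker E2 silencing; only reporter increases were scored, and knock-downs that hurt cell survival may mask genuine repressor factors.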 Reagents against one gene are numbered here. Reagent sequences are not shown.

| target | pool no. | mean z-score | z-score, replicate A | z-score, replicate B | z-score, replicate C | outcome |
| --- | --- | --- | --- | --- | --- | --- |
| ZNF772 | 1 | -0.48 | -0.51 | -0.42 | -0.51 | inactive |
| NR1D1 | 1 | 0.36 | 0.24 | 0.46 | 0.39 | inactive |
| SH3BP4 | 1 | -0.48 | -0.44 | -0.27 | -0.72 | inactive |
| UBE2R2 | 1 | 0.42 | 0.41 | 0.04 | 0.82 | inactive |
| RASL10A | 1 | -0.62 | -0.82 | -0.59 | -0.44 | inactive |
| TRMT10B | 1 | 1.03 | 0.84 | 0.97 | 1.26 | inactive |
| B3GALNT1 | 1 | -0.56 | -0.41 | -0.5 | -0.77 | inactive |
| BMP8A | 1 | -1.13 | -1.11 | -0.53 | -1.75 | inactive |
| UBA52 | 1 | -4.16 | -4.1 | -4.19 | -4.2 | inactive |
| TTI1 | 1 | 0.2 | 0.3 | 0.03 | 0.27 | inactive |
| KNCN | 1 | 0.93 | 0.04 | 1.24 | 1.52 | inactive |
| HOXC6 | 1 | 0.3 | 0.67 | 0.24 | -0.01 | inactive |
| DMKN | 1 | 2.38 | 3.2 | 2.09 | 1.85 | active |
| MICAL3 | 1 | 0.35 | 0.34 | 0.49 | 0.23 | inactive |
| MICAL3 | 2 | 1.86 | 2.33 | 1.9 | 1.36 | inactive |
| RAP2A | 1 | 1.39 | 1.07 | 1.33 | 1.77 | inactive |
| LSM4 | 1 | -1.23 | -1.32 | -1.36 | -1 | inactive |
| IRAK4 | 1 | 0.82 | 0.79 | 0.97 | 0.71 | inactive |
| ACO2 | 1 | 0.72 | 0.6 | 0.84 | 0.73 | inactive |
| CTDSPL2 | 1 | -0.93 | -0.67 | -1.26 | -0.86 | inactive |

Entries listed so far whose gene name begins with B or b (2):
| target | pool no. | mean z-score | z-score, replicate A | z-score, replicate B | z-score, replicate C | outcome |
| --- | --- | --- | --- | --- | --- | --- |
| B3GALNT1 | 1 | -0.56 | -0.41 | -0.5 | -0.77 | inactive |
| BMP8A | 1 | -1.13 | -1.11 | -0.53 | -1.75 | inactive |

The results go on:
| target | pool no. | mean z-score | z-score, replicate A | z-score, replicate B | z-score, replicate C | outcome |
| --- | --- | --- | --- | --- | --- | --- |
| THEM4 | 1 | 1.12 | 0.92 | 1.03 | 1.41 | inactive |
| KRTAP3-3 | 1 | 1.18 | 1.45 | 1.01 | 1.07 | inactive |
| LOC285344 (retired record) | 1 | -0.36 | -0.49 | -0.36 | -0.24 | inactive |
| CTPS1 | 1 | -0.54 | -0.67 | -0.61 | -0.36 | inactive |
| STOM | 1 | 0.42 | 0.49 | 0.21 | 0.56 | inactive |
| PBX4 | 1 | -0.77 | -0.67 | -0.87 | -0.78 | inactive |
| CBR1 | 1 | -0.19 | -0.15 | -0.23 | -0.2 | inactive |
| PDCD1LG2 | 1 | -0.77 | -0.44 | -0.92 | -0.94 | inactive |
| IVD | 1 | -0.2 | 0.13 | -0.31 | -0.43 | inactive |
| UGT1A6 | 1 | -0.09 | -0.11 | -0.27 | 0.1 | inactive |
| IAH1 | 1 | 0.4 | 0.28 | 0.39 | 0.54 | inactive |
| STRA6 | 1 | -0.2 | 0.13 | -0.41 | -0.32 | inactive |
| MARCHF9 | 1 | 0.34 | 0.42 | 0.21 | 0.39 | inactive |
| CNKSR1 | 1 | -0.32 | 0.02 | -0.49 | -0.49 | inactive |
| SLC35A4 | 1 | -0.93 | -0.81 | -0.86 | -1.12 | inactive |
| ZNF878 | 1 | 0.17 | 0.25 | 0.07 | 0.18 | inactive |
| FZD1 | 1 | 1.03 | 0.83 | 1.27 | 0.99 | inactive |
| CHP1 | 1 | -0.24 | -0.46 | -0.03 | -0.23 | inactive |
| RBMY1A1 | 1 | 0.69 | 0.57 | 0.58 | 0.93 | inactive |
| TSLIG2 | 1 | -0.65 | -0.54 | -0.77 | -0.63 | inactive |
| NCAPG2 | 1 | 0.97 | 0.95 | 1.14 | 0.81 | inactive |
| RNF11 | 1 | -0.33 | -0.85 | -0.18 | 0.02 | inactive |
| ARL6IP6 | 1 | -0.97 | -1.34 | -0.73 | -0.83 | inactive |
| NKAPD1 | 1 | 0.04 | -0.18 | -0.03 | 0.35 | inactive |
| ANXA1 | 1 | 0.4 | 0.55 | 0.24 | 0.41 | inactive |
| LOC338756 (retired record) | 1 | 0.43 | 0.09 | 0.49 | 0.71 | inactive |
| NAIF1 | 1 | 1.42 | 1.75 | 1 | 1.52 | inactive |
| ATP6V1G2 | 1 | 0.5 | 0.32 | 0.72 | 0.47 | inactive |
| FAHD2A | 1 | -0.73 | -0.94 | -0.84 | -0.42 | inactive |
| LGALS12 | 1 | 0.97 | 1.3 | 0.69 | 0.92 | inactive |
| CYP4B1 | 1 | 0.84 | 0.97 | 0.95 | 0.61 | inactive |
| YWHAQ | 1 | -0.29 | -0.26 | -0.73 | 0.11 | inactive |
| MFN2 | 1 | 0.36 | 0.43 | 0.36 | 0.3 | inactive |
| DRC12 | 1 | 0.51 | -0.19 | 0.84 | 0.89 | inactive |
| GDPD4 | 1 | 0.61 | 0.47 | 0.69 | 0.68 | inactive |
| OSER1 | 1 | -0.11 | -0.13 | -0.43 | 0.24 | inactive |
| ART1 | 1 | 0.56 | 0.27 | 0.43 | 0.99 | inactive |
